# Experimental data reported in article PMC9969397, “Rhenium(V) Complexes as Cysteine-Targeting Coordinate Covalent Warheads” (Journal of Medicinal Chemistry, 2023).
# Columns and labels:
# [1] = target: T1, SARS-CoV-2 papain-like protease (PL^pro) (Severe acute respiratory syndrome coronavirus 2, UniProt P0DTD1); format: biochemical; conditions: Table 2; three independent experiments
# T1 construct: papain-like protease (PL^pro); purchased Elabscience
# [2] = target: SARS-CoV-2 3-chymotrypsin-like protease (3CL^pro) (Severe acute respiratory syndrome coronavirus 2, UniProt P0DTD1); format: biochemical; conditions: Table 2; three independent experiments
substance,measurement,setting,value
"ReO(2,2′-thiodiethanethiol)(water) Trifluoromethanesulfonate [Compound 3]",IC50,[1],7.6 ± 2.8 µM
same,IC50,[2],0.018 ± 0.006 µM
